± gives the expanded uncertainty stated by the source.
Assay: activity coefficient (dimensionless); xn = mol fraction of the nth substance listed
Conditions: 101.33 kPa, Liquid, Chromatography, x1 = 0

Row | SMILES | activity coefficient (318.15 K) | activity coefficient (328.15 K) | activity coefficient (338.15 K) | activity coefficient (348.15 K) | activity coefficient (358.15 K) | activity coefficient (368.15 K)
1 | CCOCC [diethyl ether] + CCCCCCCC[N+](CC)(CC)CC.O=S(=O)(F)[N-]S(=O)(=O)F | 2.05 ± 0.14 | 2.13 ± 0.14 | 2.22 ± 0.15 | 2.31 ± 0.16 | 2.39 ± 0.16 | 2.47 ± 0.17
2 | CCOCC [diethyl ether] + CCCC[N+]1(C)CCCC1.O=S(=O)(F)[N-]S(=O)(=O)F | 3.6 ± 0.25 | 3.78 ± 0.26 | 3.96 ± 0.27 | 4.14 ± 0.28 | 4.32 ± 0.29 | 4.49 ± 0.31
3 | CC(C)OC(C)C [diisopropyl ether] + CCCCCCCC[N+](CC)(CC)CC.O=S(=O)(F)[N-]S(=O)(=O)F | 4.49 ± 0.31 | 4.61 ± 0.31 | 4.72 ± 0.32 | 4.84 ± 0.33 | 4.93 ± 0.34 | 5.05 ± 0.34
4 | CC(C)OC(C)C [diisopropyl ether] + CCCC[N+]1(C)CCCC1.O=S(=O)(F)[N-]S(=O)(=O)F | 9.39 ± 0.64 | 9.69 ± 0.66 | 9.95 ± 0.68 | 10.2 ± 0.7 | 10.5 ± 0.7 | 10.7 ± 0.7
5 | CCCOCCC [dipropyl ether] + CCCCCCCC[N+](CC)(CC)CC.O=S(=O)(F)[N-]S(=O)(=O)F | 4.03 ± 0.27 | 4.14 ± 0.28 | 4.24 ± 0.29 | 4.34 ± 0.3 | 4.42 ± 0.3 | 4.53 ± 0.31
6 | CCCOCCC [dipropyl ether] + CCCC[N+]1(C)CCCC1.O=S(=O)(F)[N-]S(=O)(=O)F | 9.23 ± 0.63 | 9.4 ± 0.64 | 9.58 ± 0.65 | 9.73 ± 0.66 | 9.88 ± 0.67 | 10 ± 0.7
7 | CCO [ethanol] + CCCCCCCC[N+](CC)(CC)CC.O=S(=O)(F)[N-]S(=O)(=O)F | 1.98 ± 0.13 | 1.87 ± 0.13 | 1.78 ± 0.12 | 1.7 ± 0.11 | 1.63 ± 0.11 | 1.56 ± 0.1
8 | CCO [ethanol] + CCCC[N+]1(C)CCCC1.O=S(=O)(F)[N-]S(=O)(=O)F | 2.32 ± 0.16 | 2.21 ± 0.15 | 2.1 ± 0.14 | 2 ± 0.14 | 1.91 ± 0.13 | 1.83 ± 0.12
9 | CCOC(C)=O [ethyl acetate] + CCCCCCCC[N+](CC)(CC)CC.O=S(=O)(F)[N-]S(=O)(=O)F | 0.902 ± 0.057 | 0.952 ± 0.06 | 1 ± 0.06 | 1.06 ± 0.07 | 1.11 ± 0.07 | 1.16 ± 0.07
10 | CCOC(C)=O [ethyl acetate] + CCCC[N+]1(C)CCCC1.O=S(=O)(F)[N-]S(=O)(=O)F | 1.32 ± 0.09 | 1.4 ± 0.09 | 1.48 ± 0.1 | 1.56 ± 0.1 | 1.64 ± 0.11 | 1.72 ± 0.12
11 | CCc1ccccc1 [ethylbenzene] + CCCCCCCC[N+](CC)(CC)CC.O=S(=O)(F)[N-]S(=O)(=O)F | 1.17 ± 0.07 | 1.25 ± 0.08 | 1.32 ± 0.09 | 1.4 ± 0.09 | 1.47 ± 0.1 | 1.54 ± 0.1
12 | CCc1ccccc1 [ethylbenzene] + CCCC[N+]1(C)CCCC1.O=S(=O)(F)[N-]S(=O)(=O)F | 2.27 ± 0.15 | 2.41 ± 0.16 | 2.53 ± 0.17 | 2.67 ± 0.18 | 2.8 ± 0.19 | 2.93 ± 0.2
13 | CCCCCCC [heptane] + CCCCCCCC[N+](CC)(CC)CC.O=S(=O)(F)[N-]S(=O)(=O)F | 11.4 ± 0.8 | 11.3 ± 0.8 | 11.2 ± 0.8 | 11.1 ± 0.8 | 10.9 ± 0.7 | 10.8 ± 0.7
14 | CCCCCCC [heptane] + CCCC[N+]1(C)CCCC1.O=S(=O)(F)[N-]S(=O)(=O)F | 40.5 ± 2.8 | 38.9 ± 2.7 | 37.4 ± 2.6 | 36 ± 2.5 | 34.8 ± 2.4 | 33.9 ± 2.3
15 | CCCCCC [hexane] + CCCCCCCC[N+](CC)(CC)CC.O=S(=O)(F)[N-]S(=O)(=O)F | 8.96 ± 0.61 | 8.92 ± 0.61 | 8.88 ± 0.61 | 8.84 ± 0.6 | 8.8 ± 0.6 | 8.76 ± 0.6
16 | CCCCCC [hexane] + CCCC[N+]1(C)CCCC1.O=S(=O)(F)[N-]S(=O)(=O)F | 28.1 ± 1.9 | 27.3 ± 1.9 | 26.8 ± 1.8 | 26.2 ± 1.8 | 25.7 ± 1.8 | 25.3 ± 1.7
17 | CC(C)c1ccccc1 [isopropylbenzene] + CCCCCCCC[N+](CC)(CC)CC.O=S(=O)(F)[N-]S(=O)(=O)F | 1.63 ± 0.11 | 1.71 ± 0.11 | 1.8 ± 0.12 | 1.89 ± 0.13 | 1.98 ± 0.13 | 2.07 ± 0.14

Row | SMILES | activity coefficient (318.15 K) | activity coefficient (328.15 K) | activity coefficient (338.15 K) | activity coefficient (348.15 K) | activity coefficient (358.15 K) | activity coefficient (368.15 K)
18 | CC(C)c1ccccc1 [isopropylbenzene] + CCCC[N+]1(C)CCCC1.O=S(=O)(F)[N-]S(=O)(=O)F | 3.24 ± 0.22 | 3.42 ± 0.23 | 3.58 ± 0.24 | 3.75 ± 0.26 | 3.91 ± 0.27 | 4.07 ± 0.28
19 | CO [methanol] + CCCCCCCC[N+](CC)(CC)CC.O=S(=O)(F)[N-]S(=O)(=O)F | 1.69 ± 0.11 | 1.61 ± 0.11 | 1.54 ± 0.1 | 1.47 ± 0.1 | 1.41 ± 0.09 | 1.35 ± 0.09
20 | CO [methanol] + CCCC[N+]1(C)CCCC1.O=S(=O)(F)[N-]S(=O)(=O)F | 1.83 ± 0.12 | 1.75 ± 0.12 | 1.67 ± 0.11 | 1.6 ± 0.11 | 1.54 ± 0.1 | 1.48 ± 0.1
21 | CCCC(=O)OC [methyl butanoate] + CCCCCCCC[N+](CC)(CC)CC.O=S(=O)(F)[N-]S(=O)(=O)F | 1.01 ± 0.06 | 1.08 ± 0.07 | 1.14 ± 0.07 | 1.2 ± 0.08 | 1.26 ± 0.08 | 1.32 ± 0.09
22 | CCCC(=O)OC [methyl butanoate] + CCCC[N+]1(C)CCCC1.O=S(=O)(F)[N-]S(=O)(=O)F | 1.65 ± 0.11 | 1.75 ± 0.12 | 1.84 ± 0.12 | 1.95 ± 0.13 | 2.05 ± 0.14 | 2.15 ± 0.15
23 | COC(C)=O [methyl ethanoate] + CCCCCCCC[N+](CC)(CC)CC.O=S(=O)(F)[N-]S(=O)(=O)F | 0.753 ± 0.05 | 0.792 ± 0.052 | 0.832 ± 0.054 | 0.871 ± 0.056 | 0.909 ± 0.058 | 0.949 ± 0.06
24 | COC(C)=O [methyl ethanoate] + CCCC[N+]1(C)CCCC1.O=S(=O)(F)[N-]S(=O)(=O)F | 0.967 ± 0.061 | 1.03 ± 0.06 | 1.09 ± 0.07 | 1.15 ± 0.07 | 1.21 ± 0.08 | 1.27 ± 0.08
25 | CCC(=O)OC [methyl propanoate] + CCCCCCCC[N+](CC)(CC)CC.O=S(=O)(F)[N-]S(=O)(=O)F | 0.832 ± 0.054 | 0.881 ± 0.056 | 0.931 ± 0.059 | 0.981 ± 0.062 | 1.03 ± 0.06 | 1.08 ± 0.07
26 | CCC(=O)OC [methyl propanoate] + CCCC[N+]1(C)CCCC1.O=S(=O)(F)[N-]S(=O)(=O)F | 1.2 ± 0.08 | 1.28 ± 0.08 | 1.36 ± 0.09 | 1.44 ± 0.09 | 1.52 ± 0.1 | 1.6 ± 0.11
27 | CC1CCCCC1 [methylcyclohexane] + CCCCCCCC[N+](CC)(CC)CC.O=S(=O)(F)[N-]S(=O)(=O)F | 6.6 ± 0.45 | 6.53 ± 0.45 | 6.46 ± 0.44 | 6.41 ± 0.44 | 6.35 ± 0.43 | 6.3 ± 0.43
28 | CC1CCCCC1 [methylcyclohexane] + CCCC[N+]1(C)CCCC1.O=S(=O)(F)[N-]S(=O)(=O)F | 19.2 ± 1.3 | 18.6 ± 1.3 | 18.1 ± 1.2 | 17.6 ± 1.2 | 17.1 ± 1.2 | 16.7 ± 1.1
29 | CCCCCCCCC [nonane] + CCCCCCCC[N+](CC)(CC)CC.O=S(=O)(F)[N-]S(=O)(=O)F | 18.9 ± 1.3 | 18.5 ± 1.3 | 18 ± 1.2 | 17.7 ± 1.2 | 17.3 ± 1.2 | 16.9 ± 1.2
30 | CCCCCCCCC [nonane] + CCCC[N+]1(C)CCCC1.O=S(=O)(F)[N-]S(=O)(=O)F | 79.3 ± 5.4 | 74.5 ± 5.1 | 70.4 ± 4.8 | 66.8 ± 4.6 | 63.6 ± 4.4 | 60.7 ± 4.2
31 | C=CCCCCCC [oct-1-ene] + CCCCCCCC[N+](CC)(CC)CC.O=S(=O)(F)[N-]S(=O)(=O)F | 8.12 ± 0.55 | 8.2 ± 0.56 | 8.26 ± 0.56 | 8.31 ± 0.57 | 8.33 ± 0.57 | 8.39 ± 0.57
32 | C=CCCCCCC [oct-1-ene] + CCCC[N+]1(C)CCCC1.O=S(=O)(F)[N-]S(=O)(=O)F | 25.4 ± 1.7 | 25 ± 1.7 | 24.7 ± 1.7 | 24.3 ± 1.7 | 24.1 ± 1.6 | 23.9 ± 1.6
33 | CCCCCCCC [octane] + CCCCCCCC[N+](CC)(CC)CC.O=S(=O)(F)[N-]S(=O)(=O)F | 14.7 ± 1 | 14.4 ± 1 | 14.1 ± 1 | 13.9 ± 1 | 13.7 ± 0.9 | 13.5 ± 0.9
34 | CCCCCCCC [octane] + CCCC[N+]1(C)CCCC1.O=S(=O)(F)[N-]S(=O)(=O)F | 55.4 ± 3.8 | 53 ± 3.6 | 50.9 ± 3.5 | 49 ± 3.4 | 47.2 ± 3.2 | 45.6 ± 3.1

Source: the NIST ThermoML archive (doi:10.1016/j.jct.2018.07.024)
